A mixed list of measured activities; the numbers were collected in NIAID ChemDB.

Common to all: tests in culture; agent: HIV-1; read by: p24; endpoint: EC50

Lines come from different laboratories, so protocols vary. An empty or dashed field is not shown. ECn is the concentration giving n% inhibition of infection, replication or growth. Two numbers with a dash give a range or band.

structure,setting,strain or isolate,cell line,mutations,value
CCN1c2ncc(CCOc3ccc4cc(C(=O)NN)ccc4c3)cc2C(=O)N(C)c2cccnc21,-,-,C8166,RT-K103N Y181C,0.1–1 µM
CC(C)(C)NC(=O)[C@@H]1C[C@@H]2CCCC[C@@H]2CN1C[C@@H](O)[C@H](Cc1ccccc1)NC(=O)[C@@H]1CCCS(=O)(=O)C1,-,IIIB,MT-4,-,<0.2 µM
Cc1cn([C@H]2C[C@H](N=[N+]=[N-])[C@@H](CO)O2)c(=O)[nH]c1=O,-,IIIB,H9,-,<0.001 µg/mL
Nc1ccn([C@H]2CC[C@@H](CCP(=O)(O)O)O2)c(=O)n1,-,IIIB,CEM,-,150 µM
O=C(OC[C@H]1O[C@@H](OC(=O)c2cc(OS(=O)(=O)O)c(OS(=O)(=O)O)c(OS(=O)(=O)O)c2)[C@H](OC(=O)c2cc(OS(=O)(=O)O)c(OS(=O)(=O)O)c(OS(=O)(=O)O)c2)[C@@H](OC(=O)c2cc(OS(=O)(=O)O)c(OS(=O)(=O)O)c(OS(=O)(=O)O)c2)[C@@H]1OC(=O)c1cc(OS(=O)(=O)O)c(OS(=O)(=O)O)c(OS(=O)(=O)O)c1)c1cc(OS(=O)(=O)O)c(OS(=O)(=O)O)c(OS(=O)(=O)O)c1,12 d,IIIB,PBL,-,2.55 µg/mL
COc1ccc(-c2cc(C(=O)Nc3ccc(S(=O)(=O)Nc4cc(C)nc(C)n4)cc3)c3ccccc3n2)cc1,-,IIIB,MT-2,-,>10 µM
CCN1c2ncc(CCOc3cccc4c3C=CS(=O)(=O)N4C)cc2-c2ncc(C)n2-c2cccnc21,-,-,C8166,-,<0.01 µM
C/C(=C(/CCO)SS/C(CCO)=C(\C)N(C=O)Cc1cnc(C)nc1N)N(C=O)Cc1cnc(C)nc1N,-,-,CEM-SS,-,>100 µM
O=C(OC(Cc1ccc(O)c(O)c1)C(=O)O)c1cc(-c2ccc(O)c(O)c2)c2cc(O)c(O)cc2c1,-,NL4-3,HuT-78,-,>50 µM
CN(c1nc(C(=O)NCc2ccc(F)cc2C(N)=O)c(O)c2ncccc12)S(C)(=O)=O,-,-,MT-4,-,<5 µM
Cc1cc(C)c(-n2nnnc2SCC(=O)Nc2ccc3c(c2)OCO3)c(C)c1,-,RT-K103N Y181C,C8166,1(RT-K103N Y181C),≥0.1 µM
CC(=O)OC[C@]12[C@H](OC(C)=O)[C@H](OC(C)=O)[C@@H]3[C@@H](OC(C)=O)[C@@]14O[C@@]3(C)COC(=O)c1cnccc1[C@@H](C)[C@@](C)(O)C(=O)O[C@@H]([C@H](OC(=O)c1ccoc1)[C@@H]2OC(C)=O)C4(C)O,-,-,H9,-,0.1 µg/mL
COc1ccc(S(=O)(=O)N(CC(C)C)C[C@@H](O)CCN(CC2CCCC2)S(=O)(=O)CC2CCOC2)cc1,-,IIIB,CEM,-,<1 µM
Nc1cc(S(=O)(=O)O)c2ccccc2c1N,-,-,H9,-,>1 µg/mL
CN(C)C(=O)c1cc(F)ccc1CNC(=O)c1nc(N2CCCCS2(=O)=O)c2cccnc2c1O,-,-,MT-4,-,<5 µM
COc1ccc2c(c1)N(C(=O)OC(C)C)[C@@H](CSC)C(=S)N2,-,MN: RS(HBY 097),H9,-,>25 µM
COc1ccc(S(=O)(=O)N(CC(C)C)CC(O)C(=O)N2CSC[C@H]2C(=O)NC(C)(C)C)cc1,-,IIIB,CEM,-,<1 µM
O=C(c1ccc(Nc2ccnc3cc(Cl)ccc23)cc1)N1CCOCC1,-,-,MT-2,-,2.5 µM
CCOC(=O)/C=C/c1ccc2c(c1)c(=O)c(/C(O)=C/C(=O)C(=O)OCC)cn2Cc1ccc(F)cc1,-,NL4-3,TZM-bl,-,>140 µM
O=C(CSc1nnnn1-c1ccccc1C(F)F)Nc1ccccc1[N+](=O)[O-],-,RT-K103N Y181C,C8166,1(RT-K103N Y181C),≥0.1 µM
CC1(C)CC(NC(=O)C(=O)Nc2ccc(Br)cc2)CC(C)(C)N1,-,IIIB,MT-2,-,11.88 µM
COc1ccc2c(c1OC)C(CC(C)=O)N(C)c1c-2ccc2cc3c(cc12)OCO3,-,IIIB,H9,-,1.77 µM
N#Cc1cc(Cl)cc(Oc2cc(OCc3[nH]nc4nc(N5CCC(N)C5)ccc34)ccc2Cl)c1,-,-,MT-4,-,<20 µM
CN(C)C(=O)C(=O)N(C)C1CN(C2CC2)CCn2c1nc(C(=O)NCc1ccc(F)c(Cl)c1)c(O)c2=O,-,-,MT-4,-,<1 µM
CCN1c2ncc(CCOc3ccc(-c4ccc(CC(=O)O)cc4)cc3C)cc2-c2nccn2-c2cccnc21,-,-,C8166,-,<0.01 µM
Cc1cc(=O)oc2c3c(c(CBr)cc12)OC(C)(C)[C@H](OC(=O)C12CCC(C)(C(=O)O1)C2(C)C)[C@@H]3OC(=O)C12CCC(C)(C(=O)O1)C2(C)C,-,IIIB,H9,-,0.02462 µM
COc1c2c(cc3c1[C@H](c1ccc(O)c(Oc4ccccc4)c1)[C@H]1C(=O)OC[C@@H]1C3)OCO2,-,IIIB,H9,-,2.38 µM
CN(C[C@@H](CCN1CCC2(CC1)CS(=O)c1ccccc12)c1ccc(Cl)c(Cl)c1)S(=O)(=O)c1ccccc1,-,YU-2 R5 strain,PBMC,-,<6 µM
NS(=O)(=O)c1ccc(NC(=O)COc2cc(Cl)cc(Oc3cncc(Br)c3)c2)c(Cl)c1,-,-,MT-4,-,<20 µM
Cc1cc2ccc3c(c2oc1=O)[C@@H](OC(=O)C12CCC(C)(C(=O)O1)C2(C)C)[C@@H](OC(=O)C12CCC(C)(C(=O)O1)C2(C)C)C(C)(C)O3,-,IIIB,H9,-,0.02731 µM
O=C(CSc1nc2ccc(NC(=O)c3ccccc3C(=O)O)cc2s1)NCc1ccccc1,-,IIIB,MT-2,-,>10 µM
COc1ccc(S(=O)(=O)N(CC(C)C)C[C@@H](O)CCN(CC2CCCC2)S(=O)(=O)CC2CS(=O)(=O)CC2O)cc1,-,IIIB,CEM,-,<1 µM
Cc1c(Cl)c(=O)oc2c3c(ccc12)OC(C)(C)[C@H](OC(=O)C12CCC(C)(C(=O)O1)C2(C)C)[C@@H]3OC(=O)C12CCC(C)(C(=O)O1)C2(C)C,-,IIIB,H9,-,0.00075 µM
Nc1nccc2c1ncn2[C@@H]1O[C@H](CO)[C@@H](O)[C@H]1O,-,14A-4/87 PRE-AZT,PBMC,-,0.122 µM
COCCN(C)c1ccc2c(COc3ccc(Cl)c(Oc4cc(Cl)cc(C#N)c4)c3)[nH]nc2n1,-,-,MT-4,-,<20 µM
Cc1c(CC#N)c(=O)oc2c3c(ccc12)OC(C)(C)[C@H](OC(=O)C12CCC(C)(C(=O)O1)C2(C)C)[C@@H]3OC(=O)C12CCC(C)(C(=O)O1)C2(C)C,-,IIIB,H9,-,0.0024 µM
COc1cc(C[C@@]2(O)C(=O)OC[C@@H]2Cc2ccc(OC)c(OC)c2)ccc1O,-,IIIB,H9,-,<0.05 µM
N#Cc1cc(Cl)cc(Oc2cc(Cl)cc(OCc3[nH]nc4ccccc34)c2)c1,-,-,MT-4,-,<20 µM
NCCS,-,-,CEM-SS,-,>100 µM
O=S(=O)(O)OCC1OC2OC3C(COS(=O)(=O)O)OC(OC4C(COS(=O)(=O)O)OC(OC5C(COS(=O)(=O)O)OC(OC6C(COS(=O)(=O)O)OC(OC7C(COS(=O)(=O)O)OC(OC1C(OS(=O)(=O)O)C2OS(=O)(=O)O)C(OS(=O)(=O)O)C7OS(=O)(=O)O)C(OS(=O)(=O)O)C6OS(=O)(=O)O)C(OS(=O)(=O)O)C5OS(=O)(=O)O)C(OS(=O)(=O)O)C4OS(=O)(=O)O)C(OS(=O)(=O)O)C3OS(=O)(=O)O,-,-,PBMC,-,<1 µg/mL
COc1ccc([C@H]2c3c(cc4c(c3OC)OCO4)C[C@H]3CSC[C@@H]32)cc1OCc1ccccc1,-,IIIB,H9,-,1.09 µM
O=C(NCc1cccnc1)C(=O)N/N=C\c1ccc(-c2cccc(Cl)c2)o1,-,IIIB,MT-2,-,<10 µM
N#Cc1cc(Cl)cc(Oc2cc(OCc3[nH]nc4nc(N5CCC5)ccc34)ccc2Cl)c1,-,-,MT-4,-,<20 µM
CNC(=O)c1cc(F)ccc1CNC(=O)c1nc(N(C)S(C)(=O)=O)c2cccnc2c1O,-,-,MT-4,-,<5 µM
CC(C)CN(CC(O)CC(=O)N1CCN(Cc2cccnc2)C[C@H]1C(=O)NC(C)(C)C)S(=O)(=O)c1ccccc1,-,IIIB,CEM,-,<1 µM
Cc1cn([C@H]2CC[C@@H](CCP(=O)(O)O)O2)c(=O)[nH]c1=O,-,IIIB,CEM,-,>200 µM
N#Cc1cc(Cl)cc(Oc2cc(OCc3nc(-c4ccccc4)no3)ccc2Cl)c1,-,-,MT-4,-,<20 µM
O=C(CSc1nnnn1-c1cccc2ccccc12)Nc1cccc(Cl)c1Cl,-,WT,C8166,-,<0.05 µM
CC(=O)N1CCn2c(nc(C(=O)NCc3ccc(F)cc3)c(O)c2=O)C1,-,-,MT-4,-,<50 µM
O=C(OC1[C@H](OC(=O)c2cc(O)c(O)c(O)c2)CC(OC(=O)c2cc(O)c(O)c(O)c2)(C(=O)O)C[C@H]1OC(=O)c1cc(O)c(O)c(O)c1)c1cc(O)c(O)c(O)c1,-,IIIB,H9,-,~6.25 µM
CCCCOCCOc1ccc(-c2ccc3c(c2)/C=C(/C(=O)Nc2ccc([S@@](=O)Cc4nncn4CCC)cc2)CCCN3CC(C)C)cc1,-,BAL R5,MOLT-4(CCR5) + PBMC,-,<0.0016 µM
CC(C)=CCOc1cc(NC(=S)c2ccoc2C)ccc1Cl,-,NL4-3,CEM + CEM-SS,RT-L74V,0.006 µM
Cn1cc(NC(=O)Nc2cc(C(=O)Nc3cc(C(=O)Nc4ccc(S(=O)(=O)O)c5cc(S(=O)(=O)O)ccc45)n(C)c3)n(C)c2)cc1C(=O)Nc1cc(C(=O)Nc2ccc(S(=O)(=O)O)c3cc(S(=O)(=O)O)ccc23)n(C)c1,-,WEJO,PBL,-,5.3 µM
CCN1c2ncc(CCOc3ccc(C(=O)O)c4ccccc34)cc2C(=O)N(C)c2ccc(F)nc21,-,-,C8166,RT-K103N Y181C,<0.1 µM
Cc1c(COC(N)=O)c(=O)oc2c3c(ccc12)OC(C)(C)[C@H](OC(=O)C12CCC(C)(C(=O)O1)C2(C)C)[C@@H]3OC(=O)C12CCC(C)(C(=O)O1)C2(C)C,-,IIIB,H9,-,0.353 µM
CC(C)CN(CCC(O)CNc1cscc1S(=O)(=O)c1ccccc1)S(=O)(=O)c1ccccc1,-,IIIB,CEM,-,<1 µM
CC(=O)N1CCn2c(nc(C(=O)NCc3ccc(F)cc3)c(O)c2=O)C1CN(C)C,-,-,MT-4,-,<50 µM
S=C(NCCN1CCCCC1)Nc1ccc(Br)cn1,-,MDR (RT 74V 41L 106A 215Y),PBMC,RT-M41L L74V V106A T215Y,>1 µM
CC1c2nc(C(=O)NCc3ccc(F)cc3)c(O)c(=O)n2CCN1Cc1ccnn1C,-,-,MT-4,-,<1 µM
CC(=O)O[C@@H]1[C@@H]2[C@@H](OC(C)=O)[C@@]34O[C@@]2(C)COC(=O)c2cnccc2[C@@H](C)[C@@](C)(O)C(=O)O[C@@H]([C@H](OC(C)=O)[C@H](OC(C)=O)[C@@]3(COC(=O)c2ccoc2)[C@@H]1OC(C)=O)C4(C)O,-,-,H9,-,0.13 µg/mL
CO[C@H]1C[C@@H]2CC[C@@H](C)[C@@](O)(O2)C(=O)C(=O)N2CCCC[C@H]2C(=O)O[C@H]([C@H](C)C[C@@H]2CC[C@@H](O)[C@H](OC)C2)CC(=O)[C@H](C)/C=C(\C)[C@@H](O)[C@@H](OC)C(=O)[C@H](C)C[C@H](C)/C=C/C=C/C=C/1C,-,HXB2 X4,PBMC,-,0.001 µM
O=c1oc(C(CC2CC2)CC2CC2)cc(O)c1C(c1cccc(NS(=O)(=O)c2ccccn2)c1)C1CC1,-,IIIB,H9,-,1–3 µM
CN1C(=O)CN2CCn3c(nc(C(=O)NCc4ccc(F)cc4)c(O)c3=O)C1C2,-,-,MT-4,-,<50 µM
CCN1c2ncc(CCOc3ccc(CC(C)C(=O)O)c4ccccc34)cc2C(=O)N(C)c2ccc(Cl)nc21,-,WT,C8166,-,<0.1 µM
NCC(=O)N1CCC[C@H]1C(=O)NCC(N)=O,-,LAV,MT-2,-,<20 µM
CN1CCN(c2cc(-c3ccccc3)nc3ccccc23)CC1,-,LAV,PHA-PBMC + PBMC,-,34.8 µM
CCN1c2ncc(CCOc3ccc(CC(=O)O)c4c3CCCC4)cc2C(=O)N(C)c2ccc(Cl)nc21,-,WT,C8166,-,<0.1 µM
Cc1cc(C)cc(S(=O)(=O)c2c(C(N)=O)[nH]c3c(Cl)cc(Cl)cc23)c1,-,IIIB,C8166,RT-K103N Y181C,>100 µM
O=C(CSc1nccn1-c1cccc2ccccc12)Nc1ccccc1[N+](=O)[O-],-,WT,C8166,-,<0.05 µM
CC(C)CN(C[C@@H](O)[C@H](Cc1ccccc1)NC(=O)O[C@H]1CO[C@H]2OCC[C@H]21)S(=O)(=O)c1ccc2nc(NC3CCN(C4CCCC4)CC3)sc2c1,-,LAI,PBMC,-,2.2 nM
Cc1cc2ccccc2c(-c2ccc3c4c(ccnc24)CCO3)c1[C@H](OC(C)(C)C)C(=O)O,-,BaL,PBMC,-,0.015 µM
CCN1c2ncc(CCOc3ccc(C(C)CC(=O)O)c4ccccc34)cc2C(=O)N(C)c2cccnc21,-,WT,C8166,-,<0.1 µM